Results of unrelated studies side by side (data: NIAID ChemDB).

Common to all: cytotoxicity tests; read-out: CC50

CCn: concentration that lowers growth or viability of the cells by n%.

| compound | read by | cells | result |
|---|---|---|---|
| COc1cc(-c2oc3cc(O[C@@H]4O[C@H](CO)[C@@H](O)[C@H](O)[C@H]4O)cc(O)c3c(=O)c2O[C@@H]2O[C@H](CO[C@@H]3O[C@@H](C)[C@H](O)[C@@H](O)[C@H]3O)[C@@H](O)[C@H](O)[C@H]2O)ccc1O |  | C8166 | 100 µg/mL |
| CC(C)(C)S(=O)(=O)C[C@@H](Cc1cccc2ccccc12)C(=O)N[C@@H](Cc1cnc[nH]1)C(=O)N[C@@H](Cc1ccccc1)[C@@H](O)[C@H](O)[C@H](Cc1ccccc1)NC(=O)[C@H](Cc1cnc[nH]1)NC(=O)[C@H](Cc1cccc2ccccc12)CS(=O)(=O)C(C)(C)C |  | PBLC | >10 µM |
| O=c1cc(-c2ccc(O)c(-c3c(O)cc(O)c4c(=O)cc(-c5ccc(O)cc5)oc34)c2)oc2cc(O)cc(O)c12 | MTT | HepG 2.2.15 cells | <30 µg/mL |
| Nc1nc2c(ncn2CC(CF)OCP(=O)(O)O)c(=O)[nH]1 |  | HB611 | 22 µM |
| C/C(=C\C=C\[C@@H](C)C1CC[C@@]2(C)[C@@H]3CC[C@H]4C(C)(C)C(=O)CC[C@]4(C)[C@@]3(O)CC[C@]12C)C(=O)O |  | P-388 | 29.17 µM |
| Nc1ncnc2c1ncn2[C@H]1CC[C@@H](CO)O1 |  | BFU-E | 10 µM |
| Nc1nc(=O)n([C@@H]2CS[C@H](CO)O2)cc1F | MTT | MAGI | >200 µM |
| [Br][Sn]([Br])([c]1ccccc1)[c]1ccccc1 |  | HFF | 2 µg/mL |
| CC(C)(C)C(=O)c1sc(C(=O)NCc2ccccc2)c(O)c1O | resazurin | C8166 | 25 µM |
| CCCCCCCC(=O)OC1(C)c2ccccc2-c2c1c(-n1ccnc1)nc1ccc(Br)cc21 | MTT | U-937 | >10 µg/mL |
| Nc1nc(N)c2ncn(CC(CO)OCP(=O)(O)O)c2n1 |  | HB611 | 32 µM |
| Nc1ccn([C@@H]2CS[C@H](CO)O2)c(=O)n1 |  | DU145 | >500 µM |
| OCCc1ccc(O[C@@H]2O[C@H](CO)[C@@H](O)[C@H](O)[C@H]2O)c(O)c1 | MTT | MDA-MB-231 | 19.43 µM |
| O=C(O)c1ccc(NS(=O)(=O)c2ccc(NC3=CC(=O)c4ccccc4C3=O)cc2)cc1 |  | P3HR-1 | >100 µg/mL |
| CC1(O)c2ccccc2-c2c1c(-n1ccnc1)nc1ccc(Br)cc21 | MTT | U-937 | >10 µg/mL |
| O=S(=O)(c1cccc2cnccc12)N1CCCNCC1 | MTT | U1 | 95 µM |
| CCON=C1CCN(c2nc(=O)c3cc(C(F)(F)F)cc([N+](=O)[O-])c3s2)CC1 | MTT | A-594 | 191 µg/mL |
| Cc1cn([C@H]2C[C@H](N=[N+]=[N-])[C@@H](CO)O2)c(=O)[nH]c1=O |  | HSF | >10 µM |
| O=c1ccn(-c2ccc(F)cc2)c2cc(-n3ccnc3)ccc12 | luminescence | HPB-ALL | 209.1 µM |
| CC1(OC(=O)CC(F)(F)F)c2ccccc2-c2c1c(-n1ccnc1)nc1ccc(Br)cc21 | MTT | U-937 | >10 µg/mL |
| O=c1cc(-c2ccc(Oc3c(O)cc4oc(-c5ccc(O)cc5)cc(=O)c4c3O)cc2)oc2cc(O)cc(O)c12 | visual reading | MDCK | 1.2 µg/mL |
| NC12CC3CC(CC(C3)C1)C2 | MTS | MDCK cells | >500 µM |
| NC1CCC(CN2CC(=O)N3C[C@@H](N(CCOc4ccccc4)S(=O)(=O)c4cccc(F)c4)C[C@H]3C2=O)CC1 |  | HEK | >10 µM |
| Cc1[nH]c(=S)nc2c1ncn2CCOCCP(=O)(O)O |  | HB611 | >400 µM |
| COC(=O)N[C@H](C(=O)N1CCC[C@H]1c1ncc(-c2ccc(-c3ccc(-c4cnc([C@@H]5CCCN5C(=O)[C@@H](NC(=O)OC)C(C)C)[nH]4)cc3)cc2)[nH]1)C(C)C | ATP | CAKI-1 | 25.5 µM |
| COc1cc(C)ccc1O.COc1cc(C=O)ccc1O | MTT | C8166 cells | 0.66 µM |
| C[C@@H]1O[C@@H](O[C@@H]2[C@@H](O)[C@H](OCCc3ccc(O)c(O)c3)O[C@H](CO)[C@H]2OC(=O)/C=C/c2ccc(O)c(O)c2)[C@H](O)[C@H](O)[C@H]1O | MTT | HL-60 | 13.52 µM |
| CN(CC1CCCCC1)C1CCN(c2nc(=O)c3cc(C(F)(F)F)cc([N+](=O)[O-])c3s2)CC1 | MTT | A-594 | 531 µg/mL |
| Nc1nc(N)c2ncn(CC(CF)OCP(=O)(O)O)c2n1 |  | HB611 | 200 µM |
| O=c1c(O)c(-c2ccc(O)c(O)c2)oc2cc(O)cc(O)c12 |  | C8166 | 10 µg/mL |
| CC(C)OP(=O)(COCCn1cnc2c(N)ncnc21)OC(C)C |  | HB611 | <34 µM |
| CON=C1CCN(c2nc(=O)c3cc(C(F)(F)F)cc([N+](=O)[O-])c3s2)CC1 | MTT | A-594 | 102 µg/mL |
| CCN1c2ncc(CCc3ccncc3)cc2C(=O)N(C)c2cccnc21 | MTT | C8166-45 | >60 µM |
| O=c1[nH]cnc2c1ncn2[C@H]1CC[C@@H](CO)O1 |  | CFU-GM | >400 µM |
| CCCCC1CN(S(=O)(=O)c2cn(C)cn2)CCC12CCN(C1(C)CCN(C(=O)c3c(C)ncnc3C)CC1)CC2 |  | CEM-R5 | 0.027 µM |
| CC(N)C12CC3CC(CC(C3)C1)C2 | MTS | MDCK cells | 258 µM |
| O=C(/C=C/c1ccc(O)c(O)c1)[Se]c1ccccc1 | WST | HLE | >100 µM |
| Cc1cn([C@H]2C[C@H](F)[C@@H](CO)O2)c(=O)[nH]c1=O |  | CFU-GM | 10 µM |
| COc1cccc(-c2nn(-c3ccccc3)cc2/C=C/c2nc3sccn3c(=O)c2-c2ccc(C#N)cc2)c1 | MTT | Monocyte-derived macrophages | 189 µg/mL |
| CC(C)[C@H](NC(=O)OCc1ccccc1)C(=O)N[C@@H](Cc1ccccc1)[C@@H](O)[C@H](O)[C@H](Cc1ccccc1)NC(=O)[C@@H](NC(=O)OCc1ccccc1)C(C)C |  | PBLC | >0.1 µM |
| Cc1ccc(-c2nn(-c3ccccc3)cc2/C=C/c2nc3sccn3c(=O)c2-c2ccc(C#N)cc2)cc1 | MTT | Monocyte-derived macrophages | 367 µg/mL |
| CCN1c2ncc(COc3ccncc3)cc2C(=O)N(C)c2ccc(Cl)nc21 | MTT | C8166-45 | >120 µM |
| Nc1nc(N)c2ncn([C@H]3CO[C@@H](CO)O3)c2n1 |  | CBMC | >500 µM |
| CC(C)(C)NC(=O)[C@@H]1CN(Cc2cccnc2)CCN1C[C@@H](O)C[C@@H](Cc1ccccc1)C(=O)N[C@H]1c2ccccc2C[C@H]1O |  | HCT-8 | >1000 µg/mL |
| O=C(/C=C/c1ccccc1)[Se]c1ccccc1 | WST | HLE | 72.9 µM |
| Nc1ncnc2c1ncn2CC(COCP(=O)(O)O)OCP(=O)(O)O |  | HB611 | >100 µM |
| CC(=O)O[C@@H](/C=C(\C)C(=O)O)C[C@@H](C)[C@H]1CC[C@@]2(C)C3CC[C@H]4C(C)(C)C(=O)CC[C@]4(C)C3=CC[C@]12C | XTT / absorbance | 1A2 | 30.09 µM |
| COC(=O)N[C@H](C(=O)N1CCC[C@H]1c1nc2ccc(-c3csc4c(-c5ccc(-c6cnc([C@@H]7CCCN7C(=O)[C@H](NC(=O)OC)c7ccccc7)[nH]6)cc5)csc34)cc2[nH]1)C(C)C | resazurin | Zluc | >100 µM |
| CC(C)(C)[C@H](NC(=O)[C@H](Cc1cccc2ccccc12)CS(=O)(=O)C(C)(C)C)C(=O)N[C@@H](Cc1ccccc1)[C@@H](O)[C@H](O)[C@H](Cc1ccccc1)NC(=O)[C@@H](NC(=O)[C@H](Cc1cccc2ccccc12)CS(=O)(=O)C(C)(C)C)C(C)(C)C |  | PBLC | >0.015 µM |
| CC(C)(C)OC(=O)NCC(=O)OC1(C)c2ccccc2-c2c1c(-n1ccnc1)nc1ccc(Br)cc21 | MTT | U-937 | >10 µg/mL |
| COc1cc(/C=C/C(=O)O[C@H]2[C@H](O)[C@@H](OC3OCC(O)(CO)C3O)[C@H](OCCc3ccc(O)cc3)O[C@@H]2CO)ccc1O | MTT | HL-60 | 5.15 µM |
| Cc1cn([C@H]2C[C@H](N=[N+]=[N-])[C@@H](CO)O2)c(=O)[nH]c1=O |  | HeLaT4 | >2500 µM |
| O=C(/C=C/c1ccc(O)cc1)[Se]c1ccccc1 | WST | Li-7 | >100 µM |
| [CH3][Sn]([CH3])([Br])[Br].c1cnc2c(c1)ccc1cccnc12 |  | HFF | 75 µg/mL |
| O=c1ccn([C@H]2C[C@H](F)[C@@H](CO)O2)c(=O)[nH]1 |  | K562 | >1000 µM |
| O=C(/C=C/C=C/c1ccc([N+](=O)[O-])cc1)[Se]c1ccccc1 | WST | Li-7 | >100 µM |
| O=C1CN=C(c2ccc[nH]2)c2cc(Cl)ccc2N1 |  | MOLT-4 | 1.6 µg/mL |
| CCSCCCCCCCCCCCC(=O)OC[C@@H]1O[C@H](n2cc(F)c(N)nc2=O)CS1 | MTT | MAGI | 93.6 µM |
| Nc1ncnc2c1ncn2CCCCP(=O)(O)O |  | HB611 | >400 µM |
| C/C(=C\C=C\[C@@H](C)[C@H]1CC[C@@]2(C)C3CC[C@H]4C(C)(C)C(=O)CC[C@]4(C)[C@@]3(O)[C@@H](O)C[C@]12C)C(=O)O |  | P-388 | 33.53 µM |
| O=c1[nH]cnc2c1ncn2[C@H]1CC[C@@H](CO)O1 |  | CFU-GM | >100 µM |
| Nc1nc(N)c2ncn([C@H]3CO[C@@H](CO)O3)c2n1 |  | CBMC | >500 µM |
| OCCc1ccc(O)c(O)c1 | MTT | MDA-MB-231 | 7.86 µM |
| COc1ccc(/C=C/C=C/C(=O)[Se]c2ccccc2)cc1 | WST | HLE | >100 µM |
| Nc1nc(=O)n(C=C=CCO)cc1F |  | 2.2.15 | >100 µM |
| CC(C)(C)C(=O)c1sc(C(=O)NCCc2ccccc2)c(O)c1O | resazurin | C8166 | >12.5 µM |
| Nc1nc2c(ncn2[C@H]2CO[C@@H](CO)O2)c(=O)[nH]1 |  | HSF | ≥500 µM |
| c1ccc(-c2ccccn2)nc1 | absorbance | J774A.1 | ≤63 µM |
| [Cl][Sn]([Cl])([Cl])[c]1ccccc1 |  | HFF | 1.6 µg/mL |
| CC(C)[C@H](NC(=O)OCc1cccnc1)C(=O)N[C@@H](Cc1ccccc1)[C@@H](O)[C@H](O)[C@H](Cc1ccccc1)NC(=O)[C@@H](NC(=O)OCc1cccnc1)C(C)C |  | PBLC | >0.253 µM |
| CO/N=C1/CCN(c2nc(=O)c3cc(C(F)(F)F)cc([N+](=O)[O-])c3s2)CC1N | MTT | A-594 | 241 µg/mL |
| N#Cc1ccc(-c2c(/C=C/c3cn(-c4ccc(Cl)cc4)nc3-c3ccccc3)nc3sccn3c2=O)cc1 | MTT | Monocyte-derived macrophage | 172 µg/mL |
| Cn1c2ccccc2c2c3c(c4c5ccccc5n(CCC#N)c4c21)CNC3=O |  | CD4+ T CELLS | 14 µM |
| C=CCc1cc(OC)c(O[C@H](C)[C@H](O)c2cc(OC)c(OC)c(OC)c2)c(OC)c1 | trypan blue / microscopy | P3HR-1 | >200 µM |
| CCCCCCC(=O)O/N=C1\c2ccccc2-c2c1c(-n1ccnc1)nc1ccc(Br)cc21 | MTT | U-937 | >20 µg/mL |
| CC(C)c1nc(CN(C)C(=O)N[C@H](C(=O)N[C@@H](Cc2ccccc2)C[C@H](O)[C@H](Cc2ccccc2)NC(=O)OCc2cncs2)C(C)C)cs1 |  | HCT-8 | >250 µg/mL |
| CC(C)Oc1ccc(Cc2ccccc2)cc1C(=O)CC(=O)C(=O)O | resazurin | C8166 | 50 µM |
| CCCC[C@H](NC(=O)[C@@H](NC(=O)[C@H](Cc1cccc2ccccc12)CS(=O)(=O)C(C)(C)C)C(C)C)[C@@H](O)[C@H](O)[C@H](CCCC)NC(=O)[C@@H](NC(=O)[C@H](Cc1cccc2ccccc12)CS(=O)(=O)C(C)(C)C)C(C)C |  | PBLC | >0.075 µM |
| CCCCOC(=O)Cc1cc(O)cc2oc(-c3ccc(O)cc3)cc(=O)c12 | MTT | HepG 2.2.15 cells | >970 µg/mL |
| Nc1ccn([C@H]2CC[C@@H](CO)O2)c(=O)n1 |  | 2.2.15 | 10 µM |
| Nc1ccn([C@@H]2CS[C@H](CO)O2)c(=O)n1 | WST | HLE | >100 µM |

The last 5 rows once more:

compound,read by,cells,result
CC(C)Oc1ccc(Cc2ccccc2)cc1C(=O)CC(=O)C(=O)O,resazurin,C8166,50 µM
CCCC[C@H](NC(=O)[C@@H](NC(=O)[C@H](Cc1cccc2ccccc12)CS(=O)(=O)C(C)(C)C)C(C)C)[C@@H](O)[C@H](O)[C@H](CCCC)NC(=O)[C@@H](NC(=O)[C@H](Cc1cccc2ccccc12)CS(=O)(=O)C(C)(C)C)C(C)C,,PBLC,>0.075 µM
CCCCOC(=O)Cc1cc(O)cc2oc(-c3ccc(O)cc3)cc(=O)c12,MTT,HepG 2.2.15 cells,>970 µg/mL
Nc1ccn([C@H]2CC[C@@H](CO)O2)c(=O)n1,,2.2.15,10 µM
Nc1ccn([C@@H]2CS[C@H](CO)O2)c(=O)n1,WST,HLE,>100 µM

An empty or dashed field is not shown. Neighbouring rows are from separate reports.